These results are taken from US20230248811A1.

For this assay, the target named is SNAP-25 in human induced pluripotent stem cell derived peripheral neurons (PERI.4U) (human) (UniProt P60880). The assay can be described thus: cell-based or functional assay.

The substance Unmodified recombinant BoNT/A1 had a pEC50, SNAP-25 cleavage in human iPSC-derived peripheral neurons of 10.2 pEC50.
